## Positions that govern dimerization of the HIV-1 5' RNA

The 5' region of HIV-1 NL4-3 RNA (positions 1-437):
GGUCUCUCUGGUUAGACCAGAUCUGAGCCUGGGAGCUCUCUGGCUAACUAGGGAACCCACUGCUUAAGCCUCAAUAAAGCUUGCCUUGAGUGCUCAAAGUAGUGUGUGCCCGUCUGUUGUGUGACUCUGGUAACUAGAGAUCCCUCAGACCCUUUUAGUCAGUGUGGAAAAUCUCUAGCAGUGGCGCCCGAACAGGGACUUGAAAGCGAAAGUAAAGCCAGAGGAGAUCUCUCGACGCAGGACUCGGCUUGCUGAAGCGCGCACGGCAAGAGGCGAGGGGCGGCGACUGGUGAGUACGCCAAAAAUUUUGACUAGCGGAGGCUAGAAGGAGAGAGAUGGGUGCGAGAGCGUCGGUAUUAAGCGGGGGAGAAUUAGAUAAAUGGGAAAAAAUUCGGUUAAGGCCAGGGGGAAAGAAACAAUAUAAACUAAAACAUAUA

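Randomly mutated transcripts starting with one, two or three G (1G, 2G, 3G), capped or uncapped, were folded for 30 min at 37 °C. Monomer and dimer bands were cut from native gels after folding in high salt (300 mM KCl, 5 mM MgCl2) or low salt (40 mM KCl, 0.1 mM MgCl2). Mutation frequencies in the two bands give Kdimer.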

Scale: median log2 Kdimer over the changes at a position; positive = changes inhibit dimerization, negative = changes enhance it.
One numbering serves 1G, 2G and 3G.
A position is written with its base where known.

| # | position | domain | 2G uncapped high-salt | 3G capped low-salt | 1G uncapped high-salt | 2G uncapped low-salt |
|---|---|---|---|---|---|---|
| 1 | U22 | TAR | 0.02 | 0.10 | 0.01 | 0.04 |
| 2 | C23 | TAR | 0.03 | -0.07 | -0.01 | -0.17 |
| 3 | G35 | TAR | -0.28 | -0.53 | -0.09 | -0.58 |
| 4 | U37 | TAR | -0.25 | -0.22 | -0.28 | -0.23 |
| 5 | A55 | TAR | 0.11 | 0.09 | 0.12 | 0.14 |
| 6 | C60 | PolyA | 0.38 | 0.19 | 0.44 | 0.24 |
| 7 | A73 | PolyA | 0.00 | -0.27 | 0.13 | 0.11 |
| 8 | A78 | PolyA | 0.11 | -0.11 | 0.06 | 0.02 |
| 9 | G88 | PolyA | 0.17 | -0.28 | 0.10 | -0.09 |
| 10 | G102 | PolyA | 0.14 | -0.23 | 0.29 | -0.09 |
| 11 | C109 | U5 | -0.19 | 1.04 | -0.16 | 0.77 |
| 12 | G121 | none | 0.05 | -0.72 | -0.07 | -0.46 |
| 13 | C127 | PAS | 0.00 | 0.84 | 0.32 | 0.54 |
| 14 | A138 | PBS | 0.27 | 0.27 | 0.31 | 0.57 |
| 15 | A157 | PBS | 0.04 | -0.03 | 0.21 | -0.01 |
| 16 | U163 | PBS | 0.12 | 0.03 | 0.10 | 0.07 |
| 17 | C175 | PBS | 0.12 | -0.36 | 0.00 | -0.25 |
| 18 | U201 | PBS | 0.07 | -0.19 | 0.06 | 0.15 |
| 19 | A216 | PBS | -0.12 | -0.53 | -0.08 | -0.58 |
| 20 | A222 | antiPAS | 0.21 | 0.79 | 0.12 | 0.47 |
| 21 | U228 | CU | 0.13 | 0.09 | 0.23 | 0.19 |
| 22 | U230 | CU | 0.66 | 0.77 | 0.42 | 0.62 |
| 23 | G266 | SL1 | 6.85 | 3.56 | 6.49 | 3.81 |
| 24 | A268 | SL1 | 2.87 | 3.06 | 3.02 | 3.15 |
| 25 | G285 | SL2 | 1.31 | 1.33 | 1.22 | 1.41 |
| 26 | G290 | SL2 | 0.24 | 0.30 | 0.11 | 0.39 |
| 27 | A303 | none | 0.11 | 0.01 | 0.03 | 0.09 |
| 28 | U307 | none | 0.21 | -0.06 | 0.16 | -0.11 |
| 29 | C322 | SL3 | 0.49 | 0.70 | 0.50 | 0.65 |
| 30 | G346 | none | 0.03 | 0.61 | -0.05 | 0.17 |
| 31 | G354 | none | -0.12 | -0.25 | -0.19 | -0.47 |
| 32 | G366 | none | 0.05 | 0.23 | 0.19 | 0.26 |
| 33 | A389 | none | -0.04 | 0.01 | 0.07 | -0.10 |
| 34 | A390 | none | 0.05 | 0.09 | 0.04 | 0.03 |
| 35 | A399 | none | 0.01 | 0.04 | 0.10 | 0.05 |
| 36 | G408 | none | -0.06 | -0.06 | 0.04 | -0.01 |
| 37 | U434 | none | -0.03 | -0.15 | -0.03 | -0.09 |
| 38 | 439 | none | 0.00 | 0.08 | 0.07 | -0.02 |
| 39 | 451 | none | 0.03 | 0.09 | 0.06 | 0.03 |
| 40 | 455 | none | 0.01 | 0.15 | 0.03 | -0.08 |
| 41 | 458 | none | 0.01 | 0.15 | 0.06 | 0.04 |
| 42 | 473 | none | -0.07 | 0.04 | -0.05 | -0.05 |
| 43 | 492 | none | 0.03 | 0.10 | 0.05 | 0.09 |
| 44 | 501 | none | 0.09 | 0.05 | -0.04 | 0.13 |
| 45 | 504 | none | -0.02 | 0.18 | 0.02 | 0.11 |
| 46 | 509 | none | 0.05 | 0.02 | 0.15 | -0.07 |
| 47 | 510 | none | -0.03 | 0.05 | 0.06 | 0.02 |

Excerpt, the final 2 entries:

{"position": "509", "domain": "none", "2G uncapped high-salt": 0.05, "3G capped low-salt": 0.02, "1G uncapped high-salt": 0.15, "2G uncapped low-salt": -0.07}
{"position": "510", "domain": "none", "2G uncapped high-salt": -0.03, "3G capped low-salt": 0.05, "1G uncapped high-salt": 0.06, "2G uncapped low-salt": 0.02}

Bases beyond 437 are not listed in the source.

Data from the supplement of Ye et al. 2022, doi:10.1038/s41594-022-00746-2.